In this test the target is Histamine H4 receptor (Homo sapiens, UniProt Q9H3N8). In words: Displacement of [3H]histamine from human histamine 4 receptor expressed in Sf9 cell membranes by liquid scintillation counting. Background: Loss of bound radioactivity is the signal in a displacement assay; it reports binding, not function.

By UniProt entry, the sequences of proteins in these tests, tags left out. Where a name states a change or a piece, a line headed by the entry shows the natural chain unless it says otherwise.
UniProt Q9H3N8: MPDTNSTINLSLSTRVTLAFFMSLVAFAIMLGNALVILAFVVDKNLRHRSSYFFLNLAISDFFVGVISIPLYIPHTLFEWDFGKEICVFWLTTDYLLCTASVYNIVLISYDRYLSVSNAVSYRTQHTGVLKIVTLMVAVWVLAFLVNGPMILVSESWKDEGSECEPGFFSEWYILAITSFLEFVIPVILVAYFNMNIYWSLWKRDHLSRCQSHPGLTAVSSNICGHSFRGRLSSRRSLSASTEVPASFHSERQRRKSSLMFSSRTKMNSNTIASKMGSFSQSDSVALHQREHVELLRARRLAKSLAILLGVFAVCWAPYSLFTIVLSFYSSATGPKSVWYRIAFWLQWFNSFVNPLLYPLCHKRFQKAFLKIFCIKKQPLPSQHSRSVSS

Experimental findings from ChEMBL document CHEMBL3751732 (Bioorg Med Chem Lett, 2016) are described below.

For orientation: Ki means the equilibrium dissociation constant of an inhibitor or competing ligand from its target. Low readings indicate a stronger hold on the target, high ones a looser hold on the target.

`CN1CCN(c2nc(NCc3cccs3)c3cc(Cl)ccc3n2)CC1`: the Ki is 42.7 nM.
